Measured values from several laboratories, pooled; numbers as filed in NIAID ChemDB.

All rows: host cell toxicity; cells: MT-4; endpoint: CC50

CCn: concentration that lowers growth or viability of the cells by n%. Blank or dashed fields: not listed here. Rows are shuffled and stem from different studies.

smiles | read by | value
CCCN(C)C(=O)Oc1nsnc1-c1c(Cl)ccc(OCOC)c1Cl |  | 43 µM
Cc1cn([C@H]2C=C[C@@H](CO)O2)c(=O)[nH]c1=O |  | 4 µM
COc1cc(C)nc(N2C(=O)CSC2c2c(F)cccc2F)n1 |  | >370.5 µM
CCc1c(Cc2cccc3ccccc23)nc(N)[nH]c1=O | MTT | 91.82 µM
CCC(C)Oc1cc(=O)[nH]c(Sc2ccc(F)cc2)n1 |  | 108 µM
CC(Sc1nc2ncccc2n1-c1ccc(C2CC2)c2ccccc12)C(=O)Nc1ccc(C(N)=O)cc1Cl | MTT | 2.01 µM
COc1ccc(OC)c(CCNC(=S)Nc2nccs2)c1 |  | 309 µM
C=C(C)[C@]12C[C@@H](COC(C)=O)[C@@]34OC5(O[C@@H]1[C@@H]3[C@@H]1O[C@]1(COC(=O)c1ccccc1)[C@@H](O)[C@@]1(O)[C@H]4[C@H]([C@H](C)[C@@H]1O)[C@H](C)CC(OC(=O)c1ccccc1)C(OC(C)=O)C(OC(=O)c1ccccc1)CC[C@H]5O)O2 | luminescence | >0.025 µM
CCCCN(CCCC)c1nc(Cc2cccc3ccccc23)c(C)c(=O)[nH]1 | MTT | >331 µM
Cc1cn([C@H]2C[C@H](N=[N+]=[N-])[C@@H](CO)O2)c(=O)[nH]c1=O | MTT | 63 µg/mL
NC(=O)c1ccc(NC(=O)CSc2nc3ncccc3n2-c2ccc(C3CC3)c3ccccc23)c(Br)c1 | MTT | 0.66 µM
COC(=O)[C@H](CO)NC(=O)CNC(=O)COc1ccc2ccccc2c1 | MTT | 58 µg/mL
Cc1cc(Br)c(Nc2ccnc(Nc3ccc(C#N)cc3)n2)c(Br)c1 |  | 0.1 µM
Nc1nccc2c1ncn2[C@@H]1C=C(CO)[C@@H](O)[C@H]1O |  | 0.072 µM
O=S(=O)(O)OCC1OC(O)C(OS(=O)(=O)O)C(OC2OC(COS(=O)(=O)O)C(OS(=O)(=O)O)C(OC3OC(COS(=O)(=O)O)C(OS(=O)(=O)O)C(OC4OC(COS(=O)(=O)O)C(OS(=O)(=O)O)C(OC5OC(COS(=O)(=O)O)C(OS(=O)(=O)O)C(OS(=O)(=O)O)C5OS(=O)(=O)O)C4OS(=O)(=O)O)C3OS(=O)(=O)O)C2OS(=O)(=O)O)C1OS(=O)(=O)O |  | >1000 µg/mL
Cc1ccc(NC(=S)NCCc2c(F)cccc2F)nc1 |  | 325 µM
CCCCc1c(Cc2cccc3ccccc23)nc(NCc2ccccc2)[nH]c1=O | MTT | 40.75 µM
Fc1cccc(F)c1CCNC(=S)Nc1nccs1 |  | 84 µM
Cc1ccc(-c2ccc3c(c2)C=C(C(=O)Nc2ccc(C[N+](C)(C)C4CCOCC4)cc2)CCC3)cc1 | MTT | >0.2 µg/mL
C=C(C)[C@]12C[C@@H](COC(=O)c3ccccc3)[C@@]34OC5(O[C@@H]1[C@@H]3[C@@H]1O[C@]1(CO)[C@@H](O)[C@@]1(O)[C@H]4[C@H]([C@H](C)[C@@H]1OC(=O)c1ccccc1)[C@H](C)CCCCCC[C@H]5O)O2 | luminescence | >0.025 µM
CCCN(C)C(=O)Oc1nsnc1-c1c(Cl)ccc([N+](=O)[O-])c1Cl |  | 54 µM
Nc1ncnc2c1ccn2[C@H]1CC[C@@H](CO)O1 |  | 33 µM
c1cc(CN2CCCNCCNCCCNCC2)ccc1CN1CCCNCCNCCCNCC1 | MTT | >5 µg/mL
C1CNCCNCCCN(CCCN2CCCNCCNCCCNCC2)CCNC1 |  | >1865 µM
Cc1c(Cc2c(Cl)cccc2Cl)nc(SC/C=C/c2ccc(N(C)C)cc2)[nH]c1=O |  | >54.35 µM
Fc1cccc(F)c1CCNC(=S)Nc1ccc(Cl)cn1 |  | 305 µM
COC(=O)[C@H](CO)NC(=O)[C@H](CCSC)NC(=O)COc1ccc2ccccc2c1 | MTT | >100 µg/mL
CCc1c(Cc2cc(C)cc(C)c2)n(COCC#Cc2ccc(I)cc2)c(=O)[nH]c1=O | MTT | 44 µM
CCOCn1c(Cc2ccccc2)c(C(C)C)c(=O)[nH]c1=O |  | 98 µM
CCCNc1nc(Cc2cccc3ccccc23)c(C)c(=O)[nH]1 | MTT | 44.02 µM
C1CNCCNCCCN[C@@H]([C@H]2CNCCCNCCNCCCN2)CNC1 |  | 200 µg/mL
N#Cc1cn([C@H]2CC[C@@H](CO)O2)c2ncnc(N)c12 |  | 54 µM
S=C(NCCc1ccccc1)Nc1ccc(Cl)cn1 |  | 51 µM
COCc1cn([C@H]2C[C@H](N=[N+]=[N-])[C@@H](CO)O2)c(=O)[nH]c1=O |  | >500 µM
COC(=O)[C@H](CO)NC(=O)[C@H](CO)NC(=O)COc1ccc2ccccc2c1 | MTT | >100 µg/mL
CCc1c(C(C)c2c(F)cccc2F)nc(SC/C=C/c2ccc(C#N)cc2)[nH]c1=O |  | 27.23 µM
Cc1cc(Cl)nc(N2C(=O)CSC2c2c(F)cccc2Cl)n1 |  | 0.893 µM
CCCN(C)C(=O)Oc1nsnc1-c1c(Cl)cccc1Cl |  | 29 µM
Cc1cc(Cl)nc(N2C(=O)CSC2c2c(Cl)cccc2Cl)n1 |  | 81.7 µM
C#CCOCn1c(Cc2ccccc2C)c(CC)c(=O)[nH]c1=O | MTT | 33 µM
CCc1c(C(C)c2c(F)cccc2F)nc(SC/C=C/c2ccc([N+](=O)[O-])cc2)[nH]c1=O |  | 5.75 µM
CCC(C)Oc1cc(N)nc(Sc2ccc(Cl)cc2)n1 |  | 106 µM
CCCCCCCCCCCCCCCCCCOC1OC(COS(=O)(=O)O)C(OC2OC(COS(=O)(=O)O)C(OC3OC(COS(=O)(=O)O)C(OC4OC(COS(=O)(=O)O)C(OC5OC(COS(=O)(=O)O)C(OC6OC(COS(=O)(=O)O)C(OS(=O)(=O)O)C(OS(=O)(=O)O)C6O)C(OS(=O)(=O)O)C5O)C(O)C4OS(=O)(=O)O)C(O)C3OS(=O)(=O)O)C(OS(=O)(=O)O)C2O)C(OS(=O)(=O)O)C1O |  | 550 µg/mL
Cc1cc(/C=C/C#N)cc(C)c1Oc1nc(N/N=C/c2ccc(C#N)cc2)nc2ccsc12 | MTT | 96.6 µM
CCCCCCCCCCCCOC1OC(COS(=O)(=O)O)C(OC2OC(COS(=O)(=O)O)C(OC3OC(COS(=O)(=O)O)C(OC4OC(COS(=O)(=O)O)C(OC5OC(COS(=O)(=O)O)C(OC6OC(COS(=O)(=O)O)C(OS(=O)(=O)O)C(OS(=O)(=O)O)C6O)C(OS(=O)(=O)O)C5OS(=O)(=O)O)C(O)C4OS(=O)(=O)O)C(OS(=O)(=O)O)C3O)C(OS(=O)(=O)O)C2O)C(O)C1OS(=O)(=O)O |  | >1000 µg/mL
Cc1cc(C#N)cc(C)c1Oc1nc(N/N=C/C2CCN(Cc3ccc(S(=O)(=O)NC4CCOCC4)cc3)CC2)nc2ccsc12 | MTT | 4.42 µM
Cc1c(C(C)c2c(F)cccc2F)nc(SC/C=C/c2ccc([N+](=O)[O-])cc2)[nH]c1=O |  | >11.28 µM
C(CCCN1CCCNCCNCCCNCC1)CCN1CCCNCCNCCCNCC1 |  | 290 µM
Cc1cc(C#N)cc(C)c1Oc1nc(N/N=C/C2CCN(Cc3ccncc3)CC2)nc2ccsc12 | MTT | 5.52 µM
Cc1ccnc(N2C(=O)CSC2c2c(F)cccc2F)n1 |  | >406.7 µM
Cc1c(Cc2ccc(C#N)cc2)nc(SCC(=O)c2ccccc2)[nH]c1=O |  | >67.2 µM
CCC12CCC3C4CCC(=O)C=C4CCC3C1CCC2(O)C#CC#CC1(O)CCC2C3CCC4=CC(=O)CCC4C3CCC21CC | MTT | 28 µM
Cc1cc(C#N)cc(C)c1Oc1nc(N/N=C/C2CCN(Cc3ccc(C#N)cc3)CC2)nc2ccsc12 | MTT | 23.6 µM
Nc1nc(N)c2ncn([C@H]3CC[C@@H](CO)O3)c2n1 |  | 477 µM
COC(=O)[C@@H](NC(=O)CNC(=O)COc1ccc2ccccc2c1)C(C)C | MTT | 82 µg/mL
CCc1c(Cc2c(Cl)cccc2Cl)nc(SCc2ccc([N+](=O)[O-])cc2)[nH]c1=O |  | >55.55 µM
S=C(NCCc1ccccc1)Nc1ccc(Br)cn1 |  | 271 µM
Cc1cc(/C=C/C#N)ccc1Oc1ccnc(Nc2ccc(C#N)cc2)n1 |  | 99.8 µM
Cc1c(Cc2cccc3ccccc23)nc(NCc2ccccc2)[nH]c1=O | MTT | 35.03 µM
Cc1cn([C@H]2C[C@H](F)[C@@H](CO)O2)c(=O)[nH]c1=O |  | 0.197 µM
CCC(C)Oc1cc(=O)[nH]c(S(=O)(=O)c2cccc(Cl)c2)n1 |  | 104 µM
COc1cc(C)nc(N2C(=O)CSC2c2c(Cl)cccc2Cl)n1 |  | 52.5 µM
CCCN(C)C(=O)Oc1nsnc1-c1c(Cl)ccc(OC)c1Cl |  | 103 µM
Cc1cc(C#N)cc(C)c1Oc1nc(N/N=C/C2CCN(Cc3ccc(C(N)=O)cc3)CC2)nc2ccsc12 | MTT | 4.65 µM
N#Cc1ccc(Nc2nccc(C(O)c3cccc4ccccc34)n2)cc1 | MTT | 6.5 µM
Cc1ccnc(N2C(=O)CSC2c2c(Cl)cccc2Cl)n1 |  | 180 µM
Cc1cn([C@@H]2O[C@@H]3[C@H](O)CO[C@]3(CO)[C@H]2O)c(=O)[nH]c1=O |  | >100 µM
CCc1csc(NC(=S)NCCc2ccccc2)n1 |  | 343 µM
Fc1cccc(F)c1C1SCc2nc3ccccc3n21 |  | 19.2 µM
COC(=O)[C@H](CCSC)NC(=O)CNC(=O)COc1ccc2ccccc2c1 | MTT | >100 µg/mL
CC(Sc1nc2ncccc2n1-c1ccc(C2CC2)c2ccccc12)C(=O)Nc1ccc(S(N)(=O)=O)cc1Br | MTT | 3.07 µM
C1CNCCNCCCN(CCCC2CNCCCNCCNCCCN2)CCNC1 |  | >445 µM
C=C1[C@H](CO)[C@@H](O)C[C@@H]1n1cnc2c(=O)[nH]c(N)nc21 | MTT | 2.16 µM
CCc1c(Cc2cc(C)cc(C)c2)n(COCc2ccc(I)cc2)c(=O)[nH]c1=O | MTT | 19 µM
CCCCc1c(Cc2cccc3ccccc23)nc(N(CC)CC)[nH]c1=O | MTT | 258 µM
CCCCCCCCCCCCOC1OC(COS(=O)(=O)O)C(OS(=O)(=O)O)C(OC2OC(COS(=O)(=O)O)C(OS(=O)(=O)O)C(OC3OC(COS(=O)(=O)O)C(OS(=O)(=O)O)C(OC4OC(COS(=O)(=O)O)C(OS(=O)(=O)O)C(OC5OC(COS(=O)(=O)O)C(OS(=O)(=O)O)C(OS(=O)(=O)O)C5OS(=O)(=O)O)C4OS(=O)(=O)O)C3OS(=O)(=O)O)C2OS(=O)(=O)O)C1OS(=O)(=O)O |  | >1000 µg/mL
Fc1cccc(F)c1CCNC(=S)Nc1ccccn1 |  | 341 µM
Cc1cc(C#N)cc(C)c1Oc1nc(Nc2ccc(C#N)cc2)nc(N)c1Br |  | 99.69 µM
CCc1c(Cc2cc(C)cc(C)c2)n(COCc2ccc(C#CC3(O)CCC4C5CCC6=CC(=O)CCC6C5CCC43CC)cc2)c(=O)[nH]c1=O | MTT | >100 µM
CC(C)Nc1cccnc1N1CCN(C(=O)c2cc3cc(NS(C)(=O)=O)ccc3[nH]2)CC1 | MTT | >4.38 µM
CCCCSc1nc(N)cc(Cl)n1 |  | 149 µM
CCc1c(Cc2cc(C)cc(C)c2)n(COCC#Cc2ccc(COCn3c(Cc4cc(C)cc(C)c4)c(CC)c(=O)[nH]c3=O)cc2)c(=O)[nH]c1=O | MTT | 16 µM

Repeating the final 11 entries:

smiles | read by | value
C1CNCCNCCCN(CCCC2CNCCCNCCNCCCN2)CCNC1 |  | >445 µM
C=C1[C@H](CO)[C@@H](O)C[C@@H]1n1cnc2c(=O)[nH]c(N)nc21 | MTT | 2.16 µM
CCc1c(Cc2cc(C)cc(C)c2)n(COCc2ccc(I)cc2)c(=O)[nH]c1=O | MTT | 19 µM
CCCCc1c(Cc2cccc3ccccc23)nc(N(CC)CC)[nH]c1=O | MTT | 258 µM
CCCCCCCCCCCCOC1OC(COS(=O)(=O)O)C(OS(=O)(=O)O)C(OC2OC(COS(=O)(=O)O)C(OS(=O)(=O)O)C(OC3OC(COS(=O)(=O)O)C(OS(=O)(=O)O)C(OC4OC(COS(=O)(=O)O)C(OS(=O)(=O)O)C(OC5OC(COS(=O)(=O)O)C(OS(=O)(=O)O)C(OS(=O)(=O)O)C5OS(=O)(=O)O)C4OS(=O)(=O)O)C3OS(=O)(=O)O)C2OS(=O)(=O)O)C1OS(=O)(=O)O |  | >1000 µg/mL
Fc1cccc(F)c1CCNC(=S)Nc1ccccn1 |  | 341 µM
Cc1cc(C#N)cc(C)c1Oc1nc(Nc2ccc(C#N)cc2)nc(N)c1Br |  | 99.69 µM
CCc1c(Cc2cc(C)cc(C)c2)n(COCc2ccc(C#CC3(O)CCC4C5CCC6=CC(=O)CCC6C5CCC43CC)cc2)c(=O)[nH]c1=O | MTT | >100 µM
CC(C)Nc1cccnc1N1CCN(C(=O)c2cc3cc(NS(C)(=O)=O)ccc3[nH]2)CC1 | MTT | >4.38 µM
CCCCSc1nc(N)cc(Cl)n1 |  | 149 µM
CCc1c(Cc2cc(C)cc(C)c2)n(COCC#Cc2ccc(COCn3c(Cc4cc(C)cc(C)c4)c(CC)c(=O)[nH]c3=O)cc2)c(=O)[nH]c1=O | MTT | 16 µM